Measured values from ChEMBL document CHEMBL6087437 (J Med Chem, 2025).

Assay: Selectivity index, ratio of CC50 for human A549 cells to EC50 for pseudotyped Ebola virus expressing glycoprotein infected in human A549 cells
Type: toxicity, cell-based

Compound | Ratio CC50/EC50
O=C(Nc1ccc(N2CCC3(CCC3)CC2)c(C(F)(F)F)c1)c1ccc(CN2C[C@@H]3C[C@H]2CO3)nc1 | 234
O=C(Nc1ccc(N2CCC3(CCC3)CC2)c(C(F)(F)F)c1)c1ccc(CN2C[C@H]3C[C@@H]2CO3)nc1 | 104
